Measured values from several laboratories, pooled; numbers as filed in NIAID ChemDB.

All rows: toxicity to cultured cells; measure: CC50

Lines come from different laboratories, so protocols vary. CCn: concentration that lowers growth or viability of the cells by n%. Blank or dashed fields: not listed here.

SMILES	cell line	read by	conditions	value
CCCCC#CCSc1ccccc1OC(C)=O	Feline thymocyte	MTT	-	87 µM
O=c1[nH]c(=O)n([C@H]2C[C@H](O)[C@@H](CO)O2)cc1/C=C/Br	HSB-2	-	-	0.2 µg/mL
CC(C)OC(=O)[C@H](C)N[P@](=O)(CO[C@H](C)Cn1cnc2c(N)ncnc21)Oc1ccccc1	RPTECs (clinical isolate 2)	ATP	-	8.2 µM
CC1=CC2=C(C(C)C)C(O)C(=O)/C(=C\N[C@H](C)C(=O)O)C2C(O)=C1c1c(C)cc2c(C(C)C)c(O)c(O)c(C=N[C@@H](C)C(=O)O)c2c1O.[Na+].[Na+]	GHOST	MTT	-	63.46 µM
C[S@@](=O)CCCCN=C=S	NA	WST	-	33.38 µM
COc1cc(C)ccc1O.COc1cc(C=O)ccc1O	C8166 cells	MTT	-	0.66 µM
CCCCCCCCCCCCCCCO[P@]1(=O)OC[C@@H]2COC(=O)C2=C(CCCC)O1	AsPC-1	resazurin	-	>50 µM
Nc1nc(N)c2ncn(CCOCP(=O)(O)O)c2n1	HSB-2	-	-	51 µg/mL
CC/C=C\C[C@H]1C(=O)CC[C@@H]1CC(=O)O	RAJI	ATP	-	>26 µM
CC1=CC2=C(C(C)C)C(O)C(=O)/C(=C\N[C@@H](C(=O)O)C(C)C)C2C(O)=C1c1c(C)cc2c(C(C)C)c(O)c(O)c(C=N[C@H](C(=O)O)C(C)C)c2c1O.[Na+].[Na+]	GHOST X4/R5	MTT	-	44.3 µM
CC(C)=CCC/C(C)=C/CC/C(C)=C/CC[C@@]1(C)CCc2cc(O)cc(C)c2O1	BJ	ATP	-	>26 µM
Nc1ncnc2c1ncn2CCOCP(=O)(O)O	CrFK	MTT	-	30 µM
Cc1cn([C@H]2C[C@H](N=[N+]=[N-])[C@@H](CO)O2)c(=O)[nH]c1=O	CFU-GM	-	-	0.9 µM
CN(C)C(=S)Oc1ccc(Cl)cc1C(=O)Nc1ccc(Br)cc1	HepG2	MTT	-	85.64 µM
N#CCCn1c2ccccc2c2c3c(c4c5ccccc5[nH]c4c21)C(=O)NC3	Akata	-	-	0.61 µM
CCCCCCCCCCCCCCCCCCOCCOP(=O)(O)OC[C@H]1O[C@@H](n2cnc(C(N)=O)n2)[C@H](O)[C@@H]1O	APC103	neutral red	-	185 µM
Cc1ccc(CSc2ncnc3c2ncn3[C@@H]2C[C@H](CO)[C@@H](O)[C@H]2O)cc1	CRL-1634	MTT	-	>100 µM
COC(=O)[C@H]1CC[C@@H](c2ccc[n+](C)c2)N1	HL-60	trypan blue	-	>50 µM
Cc1cn([C@H]2C[C@H](N=[N+]=[N-])[C@@H](CO)O2)c(=O)nc1N	BFU-E	-	-	≥100 µM
CC(C)C[C@H](O)C(=O)NC1CC2CCC1(C)C2(C)C	HEK293T	MTT	-	111.8 µM
Nc1nc(=O)n([C@@H]2O[C@H](CO)[C@@H](O)[C@@H]2F)cc1I	NC-37 CELLS	-	-	10 µM
Cl.N#Cc1cc(NC(=O)[C@H]2CCN(C(=O)C(=O)NC3(c4cn[nH]n4)CC(F)(F)C3)C2)ccc1F	HepG2.117	luminescence	-	>50 µM
CC(=O)c1c(O)c(C)c(O)c2c1OC1=CC(=O)/C(=C(/C)N[C@@H](Cc3ccc(O)cc3)C(=O)O)C(=O)[C@@]12C	L6	resazurin	-	23.51 µM
Nc1ccn([C@@H]2C[C@@H](O)[C@H](CO)O2)c(=O)n1	2.2.15	-	-	>2000 µM
CC1=CC2=C(C(C)C)C(O)C(=O)/C(=C\NC(C)(C)C(=O)O)C2C(O)=C1c1c(C)cc2c(C(C)C)c(O)c(O)c(C=NC(C)(C)C(=O)O)c2c1O.[Na+].[Na+]	GHOST X4/R5	MTT	-	53.27 µM
Nc1nc2c(ncn2COCCO)c(=O)[nH]1	HSB-2	-	-	861 µM
CN(C(=O)Oc1ccc(Cl)cc1C(=O)Nc1ccc(C(F)(F)F)cc1)c1ccccc1	HepG2 cell	MTT	-	>100 µM
NC(=O)C(c1ccccc1)(c1ccccc1)[C@H]1CCCN(CCc2ccc3c(c2)CCO3)C1	PM1	XTT	-	60 µM
C#CCCC[C@@H]1OC(=O)CNC(=O)[C@H]([C@@H](C)CC)NC(=O)[C@@H]2CCCN2C(=O)[C@H]([C@@H](C)CC)OC(=O)[C@H](Cc2ccccc2)N(C)C(=O)[C@H](C(C)C)NC(=O)C1(C)C	HT-29	MTT	-	13 µM
CC1(C)CC[C@]2(C(=O)O)CC[C@]3(C)C(=CC[C@@H]4[C@@]5(C)C[C@@H](O)[C@H](O)[C@@](C)(CO)[C@@H]5CC[C@]43C)[C@@H]2C1	BJ	ATP	-	>26 µM
CCCCCCCCCCCCCCCC(=O)OCC(CO)(COC(=O)CCCCCCCCCCCCCCC)NC(=O)CNC(=O)[C@H](CCC(=O)O)NC(=O)c1ccc(N(C)Cc2cnc3nc(N)nc(N)c3n2)cc1	Jurkat cells	-	-	10.3 µM
CCCCCCCCCc1ccc(OCCOCCOCCOCCOCCOCCOCCOCCOCCO)cc1	Human vaginal epithelial	-	-	39 µM
CCCCCCCCCCCCCCCC(=O)OCC(CO)(COC(=O)CCCCCCCCCCCCCCC)NC(=O)CNC(=O)CC[C@H](NC(=O)c1ccc(N(C)Cc2cnc3nc(N)nc(N)c3n2)cc1)C(=O)O	SWISS 3T3	-	-	0.4139 µM
CC/C=C\C[C@H]1C(=O)CC[C@@H]1CC(=O)OC	BJ	ATP	-	>26 µM
CCCCOC(=O)Cc1cc(O)cc2oc(-c3ccc(O)cc3)cc(=O)c12	HepG 2.2.15 cells	MTT	-	>970 µg/mL
Nc1ncnc2c1ncn2[C@@H]1C[C@@H](O)[C@H](CO)O1	MA-104	-	-	>100 µM
CCc1nc(N)nc(N)c1-c1ccc(Cl)cc1	CRL-1634	MTT	-	>100 µM
Cc1cn([C@@H]2C[C@@H](O)[C@H](CO)O2)c(=O)[nH]c1=O	CV-1	-	-	>100 µM
CC(=O)c1cc(O)c(O)c(=O)cc1C	HepDES19	MTS	7 d	3.54 µM
Nc1nccc2c1ncn2C[C@@H](CO)OCP(=O)(O)O	HSB-2	-	-	36 µM
[2H]C([2H])(O)[C@@]1(C#C)O[C@@H](n2ccc3c(N)nc(Cl)nc32)C[C@@H]1O	MT4-GFP	luminescence	-	>42 µM
CC(=O)c1c(O)c(C)c(O)c2c1OC1=CC(=O)/C(=C(/C)NNC(=O)c3ccc(O)cc3)C(=O)[C@@]12C	L6	resazurin	-	66.97 µM
Nc1nc(N)c(Br)c(OCCOCP(=O)(O)O)n1	HepAD38	-	-	>292 µM
[2H]C(O)[C@@]1(C#C)O[C@@H](n2ccc3c(N)nc(Cl)nc32)C[C@@H]1O	MT4-GFP	luminescence	-	>42 µM
C#CCCC[C@@H]1OC(=O)CNC(=O)[C@H](C(C)C)NC(=O)[C@@H]2CCCN2C(=O)[C@H]([C@@H](C)CC)OC(=O)[C@H](Cc2ccccc2)N(C)C(=O)[C@H](C(C)C)NC(=O)C1(C)C	HT-29	MTT	-	87 µM
C=C[C@@H](CO)[C@H](C)Cn1cnc2c(=O)[nH]c(N)nc21	MT-4 (T-CELL)	-	-	<5.02 µg/mL
O=S(=O)(c1cccc2cnccc12)N1CCCNCC1	U1	MTT	-	95 µM
Nc1ncnc2c1ncn2[C@@H]1O[C@H](OCP(=O)(O)O)C=C1F	RPTECs (clinical isolate 2)	ATP	-	>2000 µM
Nc1nc2c(nnn2CCOCP(=O)(O)O)c(=O)[nH]1	HSB-2	-	-	45 µM
CC[C@@H](C)[C@@H](N/C=C1\C(=O)C(O)C(C(C)C)=C2C=C(C)C(c3c(C)cc4c(C(C)C)c(O)c(O)c(C=N[C@H](C(=O)O)[C@@H](C)CC)c4c3O)=C(O)C21)C(=O)O.[Na+].[Na+]	GHOST	MTT	-	26.48 µM
C[C@H](Cn1cnc2c(N)ncnc21)OCP(=O)(O)O	CHO (hOAT1)	-	-	21 µM
O=C1O[C@H]2[C@@H]3OC(=O)c4cc(O)c(O)c(O)c4-c4c(cc(O)c(O)c4O)C(=O)OC[C@H]2O[C@@H](OC(=O)c2cc(O)c(O)c(O)c2)[C@@H]3OC(=O)c2cc(O)c(O)c3c2[C@@H]2C1=CC(=O)[C@](O)(O3)C2(O)O	MAGI	XTT	-	315 µM
[2H][C@@]1(O)C[C@H](n2ccc3c(N)nc(Cl)nc32)O[C@]1(C#C)CO	MT4-GFP	luminescence	-	>42 µM
CC1(C)CC[C@]2(C(=O)O)CC[C@]3(C)C(=CC[C@@H]4[C@@]5(C)C[C@@H](O)[C@H](O)C(C)(C)[C@@H]5CC[C@]43C)[C@@H]2C1	RAJI	ATP	-	>26 µM
CC(C)[C@H](O)C(=O)NC1CC2CCC1(C)C2(C)C	HEK293T	MTT	-	>200 µM
N#Cc1c(N)nc(N)nc1OCCOCP(=O)(O)O	HEPAD79	-	-	>346 µM
CC(C)Nc1nc2cc(Cl)c(Cl)cc2n1[C@H]1O[C@@H](CO)[C@H](O)[C@@H]1O	Akata	-	-	93 µM
[2H][C@]1(O)C[C@H](n2ccc3c(N)nc(Cl)nc32)O[C@]1(C#C)CO	MT4-GFP	luminescence	-	>42 µM
C[C@@H](COc1cc(N)nc(N)n1)OCP(=O)(O)O	HEPAD79	-	-	>360 µM
CC(=O)c1c(O)c(C)c(O)c2c1OC1=CC(=O)/C(=C(/C)NCc3ccccc3)C(=O)[C@@]12C	L6	resazurin	-	>208 µM
Nc1nc(N)c2nnn(C[C@@H](CO)OCP(=O)(O)O)c2n1	HSB-2	-	-	>300 µM
O=c1[nH]cnc2c1ncn2[C@H]1CC[C@@H](CO)O1	BFU-E	-	-	34 µM
CC1(C)C2CCC1(C)C(NC(=O)[C@@H](O)c1ccccc1)C2	HEK293T	MTT	-	105.2 µM
[2H][C@@]1(O)C[C@H](n2cc(F)c3c(N)ncnc32)O[C@]1(C#C)CO	MT4-GFP	luminescence	-	>42 µM
Cc1c(N)nc(N)nc1OCCOCP(=O)(O)O	HEPAD79	-	-	>360 µM
CC(=O)c1c(O)c(C)c(O)c2c1OC1=CC(=O)/C(=C(/C)NCC(=O)O)C(=O)[C@@]12C	L6	resazurin	-	165.3 µM
Nc1ccn(C[C@@H](CO)OCP(=O)(O)O)c(=O)n1	CHO (hOAT1)	-	-	3 µM
Cc1ccc2c(c1)nc(-c1ccc(N(C)C)cc1)n2CCc1ccccc1	Macrophage	MTT	-	>100 µM
O=C(Nc1ccc(F)cc1)c1cc(Cl)ccc1OC(=O)N(c1ccccc1)c1ccccc1	HepG2 cell	MTT	-	>100 µM
Oc1cc(O)c2c(c1)O[C@@H](c1ccc(O)c(O)c1)[C@H](O)C2	Huh-7/3-1	-	-	100.4 µg/mL
CN(C)C(=S)Oc1ccc(Cl)cc1C(=O)Nc1ccc(F)cc1	HepG2 cell	MTT	-	116.8 µM
Nc1ccn(C[C@@H](CO)OCP(=O)(O)O)c(=O)n1	HSB-2	-	-	39 µg/mL

Repeating the first 5 entries:

SMILES,cell line,read by,conditions,value
CCCCC#CCSc1ccccc1OC(C)=O,Feline thymocyte,MTT,-,87 µM
O=c1[nH]c(=O)n([C@H]2C[C@H](O)[C@@H](CO)O2)cc1/C=C/Br,HSB-2,-,-,0.2 µg/mL
CC(C)OC(=O)[C@H](C)N[P@](=O)(CO[C@H](C)Cn1cnc2c(N)ncnc21)Oc1ccccc1,RPTECs (clinical isolate 2),ATP,-,8.2 µM
CC1=CC2=C(C(C)C)C(O)C(=O)/C(=C\N[C@H](C)C(=O)O)C2C(O)=C1c1c(C)cc2c(C(C)C)c(O)c(O)c(C=N[C@@H](C)C(=O)O)c2c1O.[Na+].[Na+],GHOST,MTT,-,63.46 µM
C[S@@](=O)CCCCN=C=S,NA,WST,-,33.38 µM